The target in assay [1] is Human cytomegalovirus DNA polymerase (Human cytomegalovirus, UniProt P08546). As to the kind of experiment: HCMV polymerase assay (AlphaLISA). The format is biochemical. The following applies: read-out: CMV (IC50), HCMV DNA polymerase 0.2 nM, 60 minutes at 37° C. The method, then:
(§1) Human cytomegalovirus and varicella zoster virus DNA polymerases were expressed via baculovirus vector in SF21 cells and purified. Heterodimeric nucleic acid substrate used in the herpesvirus polymerase reactions was generated by annealing a 59-mer template to a 17-mer digoxigenin-labeled primer. Polymerase (HCMV final concentration of 0.2 nM; VZV final concentration of 0.4 nM) was combined with an inhibitor compound or DMSO in assay buffer (10 mM HEPES, pH 7.5, 25 mM KCl, 25 mM NaCl, 5 mM MgCl2, 5% glycerol, 0.67 mg/ml bovine serum albuminutes, and 1 mM tris(2-carboxyethyl)phosphine), and this mixture was pre-incubated for 30 minutes at room temperature in 384-well microtiter plates. The polymerization reaction was initiated by the addition of template/primer substrate (final concentration: 1.6 nM), and dNTPs (final concentration: 24 nM dCTP, 24 nMdGTP, 16 nM dATP, 16 nM dTTP, and 0.8 nM biotin-dUTP). After 60 minutes incubation at 37° C., reactions were terminated with quench buffer (25 mM HEPES pH 7.5, 100 mM NaCl, 0.25% Tween-20, 12 mM EDTA, and 1 mg/ml bovine serum albumin). Incorporation of biotinylated UTP was detected with 2.5-ug/ml anti-DIG AlphaLISA acceptor beads and 5-10 ug/ml streptavidin AlphaLISA donor beads (Perkin Elmer). Compound effects were normalized to the window defined by the controls (DMSO only and pre-quenched wells) and were fit using a 4-parameter algorithm to report an IC50.

The chains behind the UniProt entries cited, without tags or fusion partners.
UniProt P08546, whole entry: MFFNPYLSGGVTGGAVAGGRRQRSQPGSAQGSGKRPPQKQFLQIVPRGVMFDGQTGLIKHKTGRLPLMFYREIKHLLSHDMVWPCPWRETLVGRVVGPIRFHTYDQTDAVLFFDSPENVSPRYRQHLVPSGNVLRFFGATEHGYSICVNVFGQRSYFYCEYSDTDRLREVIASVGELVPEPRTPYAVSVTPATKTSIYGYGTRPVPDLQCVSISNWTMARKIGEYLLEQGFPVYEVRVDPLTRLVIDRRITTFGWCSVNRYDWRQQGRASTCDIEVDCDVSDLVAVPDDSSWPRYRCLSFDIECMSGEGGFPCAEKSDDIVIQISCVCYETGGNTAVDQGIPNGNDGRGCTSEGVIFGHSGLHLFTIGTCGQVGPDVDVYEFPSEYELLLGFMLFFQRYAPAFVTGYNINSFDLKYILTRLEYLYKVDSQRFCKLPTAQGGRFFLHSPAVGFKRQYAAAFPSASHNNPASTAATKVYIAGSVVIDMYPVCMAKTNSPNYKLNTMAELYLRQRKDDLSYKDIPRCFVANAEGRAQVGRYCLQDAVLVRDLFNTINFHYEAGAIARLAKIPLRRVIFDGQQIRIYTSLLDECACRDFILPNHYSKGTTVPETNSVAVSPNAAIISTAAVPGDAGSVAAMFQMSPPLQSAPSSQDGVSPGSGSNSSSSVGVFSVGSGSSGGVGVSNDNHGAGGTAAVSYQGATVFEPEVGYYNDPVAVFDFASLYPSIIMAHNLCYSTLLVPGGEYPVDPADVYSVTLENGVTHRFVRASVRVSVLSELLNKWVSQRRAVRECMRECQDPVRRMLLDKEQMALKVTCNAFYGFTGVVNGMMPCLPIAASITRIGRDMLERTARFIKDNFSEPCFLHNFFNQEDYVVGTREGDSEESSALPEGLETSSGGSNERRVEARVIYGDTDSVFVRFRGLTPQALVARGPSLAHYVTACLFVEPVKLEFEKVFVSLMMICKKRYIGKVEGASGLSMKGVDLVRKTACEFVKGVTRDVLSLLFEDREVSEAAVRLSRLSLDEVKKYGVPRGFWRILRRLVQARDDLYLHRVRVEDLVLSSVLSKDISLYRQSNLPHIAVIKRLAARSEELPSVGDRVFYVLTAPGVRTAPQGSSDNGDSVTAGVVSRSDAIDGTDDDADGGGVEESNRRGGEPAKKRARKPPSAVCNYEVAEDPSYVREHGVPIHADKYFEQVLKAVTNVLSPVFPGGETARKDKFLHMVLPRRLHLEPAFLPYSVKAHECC
UniProt P09252, whole entry: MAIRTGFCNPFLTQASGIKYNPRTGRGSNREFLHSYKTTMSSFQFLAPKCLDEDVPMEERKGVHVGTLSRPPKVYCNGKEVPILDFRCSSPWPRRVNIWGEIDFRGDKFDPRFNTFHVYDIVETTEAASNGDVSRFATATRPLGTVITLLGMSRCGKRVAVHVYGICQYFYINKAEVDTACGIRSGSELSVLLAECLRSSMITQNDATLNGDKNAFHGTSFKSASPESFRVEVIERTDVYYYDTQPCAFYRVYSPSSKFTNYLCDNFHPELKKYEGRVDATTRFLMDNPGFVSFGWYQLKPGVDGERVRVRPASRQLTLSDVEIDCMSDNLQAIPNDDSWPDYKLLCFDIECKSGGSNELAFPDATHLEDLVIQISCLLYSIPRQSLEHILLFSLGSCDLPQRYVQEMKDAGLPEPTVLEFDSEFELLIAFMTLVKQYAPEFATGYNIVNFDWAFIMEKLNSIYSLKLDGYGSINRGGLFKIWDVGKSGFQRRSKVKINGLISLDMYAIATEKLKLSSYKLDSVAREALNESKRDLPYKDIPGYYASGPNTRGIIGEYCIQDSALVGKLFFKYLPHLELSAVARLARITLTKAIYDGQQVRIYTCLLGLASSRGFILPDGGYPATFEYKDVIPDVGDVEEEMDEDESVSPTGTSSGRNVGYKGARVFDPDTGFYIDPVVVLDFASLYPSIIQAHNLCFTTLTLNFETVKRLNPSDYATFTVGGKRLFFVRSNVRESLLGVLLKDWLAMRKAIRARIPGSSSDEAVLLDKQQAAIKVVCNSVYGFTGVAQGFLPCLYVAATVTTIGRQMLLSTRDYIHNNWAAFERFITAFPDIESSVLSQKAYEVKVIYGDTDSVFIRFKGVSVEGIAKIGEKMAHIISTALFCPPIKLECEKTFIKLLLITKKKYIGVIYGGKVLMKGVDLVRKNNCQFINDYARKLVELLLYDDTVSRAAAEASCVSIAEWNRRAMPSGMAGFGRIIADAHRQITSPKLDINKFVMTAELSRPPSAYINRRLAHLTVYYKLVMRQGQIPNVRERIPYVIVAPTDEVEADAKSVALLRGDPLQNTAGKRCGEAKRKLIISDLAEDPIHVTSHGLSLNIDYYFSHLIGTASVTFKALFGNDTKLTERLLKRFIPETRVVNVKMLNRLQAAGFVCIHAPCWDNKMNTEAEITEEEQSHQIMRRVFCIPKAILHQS

The next assay has as its system HCMV Strain AD169. Nature of the assay: Viral qPCR assay, HCMV in MRC-5 cells. The format is cell-based, Human cytomegalovirus. The method, then: (§2) MRCS cells, Vero cells, and MeWo cells were obtained from ATCC and were maintained at 37° C./5% CO2/90% relative humidity in Minimal Essential Medium with 10% fetal bovine serum, […] L-glutamine, 100 units/ml penicillin and 100 ug/ml streptomycin. Assay plates were prepared by dispensing compounds dissolved in DMSO into wells of 384 well collagen-coated plates using an ECHO acoustic dispenser. Each compound was tested in a 10-point, serial 3-fold dilution. Controls included uninfected cells and infected cells treated only with DMSO. Assays were initiated by mixing selected cells, in suspension, with virus, and dispensing 50 μl/well infected cells to pre-plated compounds. Plates were incubated at 37° C./5% CO2/90% relative humidity for ˜72 hrs to permit genomic replication, and infected cells were lysed by the addition of an equal volume of lysis buffer (10 mM Tris-HCl, pH8, 50 mM KCl, 2 mM MgCl2, 0.45% NP-40, 0.45% Tween-20, and 100 μg/ml proteinase K). An aliquot of the lysate was transferred to a 384-well PCR plate and incubated at 56° C. for 1 hour and then at 95° C. for 10 min. Levels of a viral gene and of the cellular control, PPIA (Thermo Fisher Assay ID=Hs04194521_s1), were measured in separate 10 μL qPCR assays using TaqMan® Gene Expression Master Mix (Applied Biosystems), and an 7900HT Fast Real-Time PCR System with 384-Well Block Module. 7-point, serial 10-fold dilutions of a plasmid standard were run on each plate to generate a standard curve, and genome copies numbers were calculated by plotting experimental Ct onto linear regression of the standard curve. Viral genome copy numbers were normalized by cellular control copy number, and compound effects were normalized to the window defined by the controls. Calculated % effects were fit using a 4-parameter algorithm, and EC50 was reported.
as §2, with “gene” for “gene and of the cellular control, PPIA (Thermo Fisher Assay ID=Hs04194521_s1),”, “in” for “in separate”, “Compound effects on viral” for “Viral”, “number” for “numbers were normalized by cellular control copy number, and compound effects”
HCMV: Strain AD169 Street was assayed in MRC-5 cells and was used at 0.05-0.1 pfu/cell. The assays were performed in either growth media or in the same media with 50% fetal bovine serum. Primer-probe set was Thermo Fisher Assay ID=AIFATFK.

The next assay relates to HSV-1 Strain F. As to the kind of experiment: Viral qPCR assay, HSV-1 in Vero cells. In kind it is cell-based, Herpes Simplex Virus type 1. Conditions: read-out: HSV1 VERO Cell (EC50), ~72 hrs. The method, then:
as §2, with “Plates were incubated at 37° C./5% CO2/90% relative humidity for ˜72 hrs to permit genomic replication, and infected cells were lysed by the addition of an equal volume of lysis buffer (10 mM Tris-HCl, pH8, 50 mM KCl, 2 mM MgCl2, 0.45% NP-40, 0.45% Tween-20, and 100 μg/ml proteinase K). An aliquot of the lysate was transferred to a 384-well PCR plate and incubated at 56° C. for 1 hour and then at 95° C. for 10 min.” left out, “Viral genome copy numbers were normalized by cellular control copy number, and compound effects were normalized to the window defined by the controls.” left out, “reported. […]” for “reported.”
On the technique in general: Real-time PCR tracks product formation cycle by cycle.

A further assay relates to HSV2. As to the kind of experiment: Viral qPCR assay, HSV2 in Vero cells. The format is cell-based, Herpes Simplex Virus type 2. Conditions: read-out: HSV2 VERO Cell (EC50), ~72 hrs. Here is the method:
as §2, with “Plates were incubated at 37° C./5% CO2/90% relative humidity for ˜72 hrs to permit genomic replication, and infected cells were lysed by the addition of an equal volume of lysis buffer (10 mM Tris-HCl, pH8, 50 mM KCl, 2 mM MgCl2, 0.45% NP-40, 0.45% Tween-20, and 100 μg/ml proteinase K). An aliquot of the lysate was transferred to a 384-well PCR plate and incubated at 56° C. for 1 hour and then at 95° C. for 10 min.” left out, “Viral genome copy numbers were normalized by cellular control copy number, and compound effects were normalized to the window defined by the controls.” left out, “reported. […]” for “reported.”

The target in assay [2] is varicella zoster virus DNA polymerase (Varicella-zoster virus, UniProt P09252). Nature of the assay: VZV polymerase assay (AlphaLISA). In kind it is biochemical. Conditions: read-out: VZV (IC50); VZV DNA polymerase 0.4 nM, 60 minutes at 37° C. The method, then:
as §1, with “Compound effects were normalized to the window defined by the controls (DMSO only and pre-quenched wells) and were fit using a 4-parameter algorithm to report an IC50.” left out
Background: Bead proximity is the source of the signal in Alpha formats.

Where [3] appears, read: read-out: CMV MRC5 Cell (EC50), ~72 hrs.

Like-named read-outs stand apart in the source and are kept apart here.

One may read the IC50 as the point on the concentration scale where inhibition reaches its midpoint. For orientation: EC50 means the concentration that produces a half-maximal response. For `C[C@H]1C[C@@H](CN2Cc3c(C(=O)NCc4ccc(Cl)cc4)nn(C)c3C2)NC1=O` (relative stereo) [94], the 50% inhibitory concentration (IC50) in assay [1] was 0.12 µM. Besides, the EC50 with HCMV Strain AD169 (setting [3]) was 1.19 µM.
Consider `Cn1nc(C(=O)NCc2ccc(Cl)cc2)c2c1CN(CC1(C)CCC(=O)N1)C2` (single isomer, unassigned), for which the 50% effective concentration (EC50) with HSV-1 Strain F was 99 µM; in the assay with HSV2, 99 µM; in the assay with HCMV Strain AD169 (setting [3]), 33 µM. Also, the results for the IC50 in assay [1] and in assay [2] were 12.1 µM and 4.05 µM, respectively.
With `C[C@H]1C[C@@H](CN2Cc3c(C(=O)NCc4ccc(Cl)cc4)nn(C)c3C2)NC1=O` (relative stereo) [93], in assay [1], the IC50 was 0.0976 µM. In the assay on HCMV Strain AD169 (setting [3]), the concentration giving a half-maximal response (EC50) turned out to be 2.16 µM.
For `Cn1nc(C(=O)NCc2ccc(Cl)cc2)c2c1CN(C[C@H]1CC(F)C(=O)N1)C2` (stereo partly shown) [Compound 78] the same measures were 0.0498 µM and 0.304 µM.
In the case of `CC(C)C(=O)NCCn1nc(C(=O)NCc2ccc(Cl)cc2)c2c1CN(C[C@H]1CCC(=O)N1)C2` [Compound 25], the 50% inhibitory concentration (IC50) was determined as 0.0459 µM in assay [1] and 0.0131 µM in assay [2]. Moreover, the 50% effective concentration (EC50) in the assay with HCMV Strain AD169 (setting [3]) worked out at 5.53 µM.
Turning to `CC1c2c(c(C(=O)NCc3ccc(Cl)cc3)nn2C)CN1C(C)C1CCC(=O)N1` (single isomer, unassigned), the 50% inhibitory concentration (IC50) in assay [1] (tested form: HCl) was 1.53 µM. Moreover, in the assay on HCMV Strain AD169 (read-out: CMV MRC5 Cell (EC50), ~72 hrs, tested form: HCl), the concentration giving a half-maximal response (EC50) worked out at 5.01 µM.

Values taken from patent US20240059693A1, “FUSED BICYCLIC PYRAZOLE DERIVATIVES AND METHODS OF USE THEREOF FOR THE TREATMENT OF HERPESVIRUSES” (Merck Sharp & Dohme LLC, priority 2020, published 2024).
